Measured values from several laboratories, pooled; numbers as filed in NIAID ChemDB.

All rows: tests in culture; agent: Hepatitis C virus; endpoint: EC50

Two numbers with a dash give a range or band. ECn: concentration that inhibits the pathogen or its effect by n%. Neighbouring rows are from separate reports.

COC(=O)N[C@H](C(=O)N1CCC[C@H]1c1ncc(-c2ccc(-c3ccc(-c4cnc([C@@H]5CCCN5C(=O)[C@@H](NC(=O)OC)C(C)C)[nH]4)cc3)cc2)[nH]1)C(C)C ; cell line: Lunet ; method: luciferase ; mutations: L31M ; strain: 1a ; value: 0.0036 µM
C=CC1C[C@@]1(NC(=O)[C@@H]1C[C@@H](Oc2cc(-c3ccccc3)nc3cc(OC)ccc23)CN1C(=O)[C@@H](NC(=O)OCCF)C(C)(C)C)C(=O)NS(=O)(=O)C1(Cc2ccccc2)CC1 ; cell line: Huh7 ; method: replicon ; strain: 1b ; value: 0.05–0.5 µM
Nc1ncnc2c1c(I)cn2[C@H]1O[C@H](CO)[C@@H](O)C1(F)F ; cell line: HCV replicon ; method: replicon ; strain: 2a ; value: 4.67 µM
COCCN(C(=O)c1ccc(Cl)cc1Cl)c1cc(-c2ccc(-c3cc4ncccn4n3)cc2)sc1C(=O)O ; method: luciferase / replicon ; strain: 1b ; value: <0.005 µM
N#Cc1c(Nc2cc(C(F)(F)F)cc(C(F)(F)F)c2)s[nH]c1=O ; cell line: Huh7 ; method: replicon ; value: 1–10 µM
CNC(=O)c1c(-c2ccc(F)cc2)oc2cc(-c3cc(C)nn3C)c(OC(C)C)cc12 ; cell line: Huh7 ; method: replicon ; value: <10 µM
Cc1c(C(=O)Nc2ccc(-c3cc(N(C(=O)C4CCC(C)CC4)C(C)C)c(C(=O)O)s3)cc2)cnn1C ; method: replicon ; strain: 1a ; value: >0.5 µM
C=CC1CC1(NC(=O)[C@@H]1C[C@@H](OC(=O)Nc2cc(C)ccc2-c2nccs2)CN1C(=O)[C@@H](NC(=O)OC(C)(C)C)C(C)(C)C)C(=O)NS(=O)(=O)C1CC1 ; cell line: Huh7 ; method: replicon ; strain: 1b ; value: <0.1 µM
CNC(=O)c1c(-c2ccc(F)cc2)oc2cc(-c3c(C)noc3C)c(OCC3CC3)cc12 ; cell line: Huh7 ; method: replicon ; value: <1 µM
COc1ccc(OCCCCCOc2cccc(NC(N)=S)c2)cc1 ; cell line: Ava5-EG(delta4AB)SEAP ; method: reporter gene / fluorescence ; value: 0.001–1 µM
CC1CCC(C(=O)N(c2cc(-c3ccc(NC(=O)c4cncc(F)c4)cc3)sc2C(=O)O)C(C)C)CC1 ; method: replicon ; strain: 1a ; value: >0.5 µM
CCCCCCCCOc1ccc(N(C(=O)C(C)OC(C)=O)c2nc(-c3ccc(C)nc3)cs2)cc1 ; value: <1 µM
N#Cc1c(Nc2ccc(I)cc2)s[nH]c1=O ; cell line: Huh7 ; method: replicon ; value: 1–10 µM
CNC(=O)c1c(-c2ccccc2)oc2ccc(COC)cc12 ; cell line: Huh7 ; method: replicon ; value: <30 µM
Nc1ncnc2c1c(-c1ccco1)cn2[C@@H]1O[C@H](CO)[C@@H](O)[C@H]1F ; cell line: HCV replicon ; method: replicon ; strain: 1b ; value: 1.85 µM
C=C[C@H]1C[C@@]1(NC(=O)[C@@H]1C[C@@H](Oc2ccnc3cc(Cl)ccc23)CN1C(=O)[C@@H](NC(=O)OC1CCCC1)C(C)(C)C)C(=O)NS(=O)(=O)C1(CC2CC2)CC1 ; cell line: Huh7 ; method: replicon ; strain: 1b ; value: 0.05–0.5 µM
O=C(O)c1sc(-c2ccc(-c3cc4ncccn4n3)cc2)cc1N(C(=O)c1ccc(Cl)cc1F)C1CCOCC1 ; method: luciferase / replicon ; strain: 1b ; value: 0.01–0.05 µM
CCOC(=O)c1ccc(Nc2ncnc3c2cnn3-c2ccc(C)cc2C)cc1 ; cell line: HUH 9B ; method: replicon ; value: <1 µM
CCCCCCCCCc1ccc(N(C(=O)C(N)C(C)C)c2nc(-c3cccnc3)c(F)s2)cc1C(F)(F)F ; value: <1 µM
COCCCNc1s[nH]c(=O)c1C#N ; cell line: Huh7 ; method: replicon ; value: >50 µM
NC(=S)Nc1ccc2c(c1)Cc1cc(N)ccc1-2 ; cell line: Ava5-EG(delta4AB)SEAP ; method: reporter gene / fluorescence ; value: 0.001–1 µM
CC(C)N(C(=O)c1ccc(Cl)cc1F)c1cc(-c2ccc(-c3cn4ccccc4n3)cc2)sc1C(=O)O ; method: luciferase / replicon ; strain: 1b ; value: 0.1–0.5 µM
CC1CCC(C(=O)N(c2cc(-c3ccc(NC(=O)c4ccns4)cc3)sc2C(=O)O)C(C)C)CC1 ; method: replicon ; strain: 1a ; value: >0.5 µM
C=CC1C[C@@]1(NC(=O)[C@@H]1C[C@@H](Oc2cc(-c3ccccn3)nc3cc(OC)ccc23)CN1C(=O)[C@@H](NC(=O)OC(C)(C)C)C(C)(C)C)C(=O)NS(=O)(=O)C1(Cc2ccccc2)CC1 ; cell line: Huh7 ; method: replicon ; strain: 1b ; value: 0.05–0.5 µM
C=CC1CC1(NC(=O)[C@@H]1C[C@@H](OC(=O)Nc2ccccc2CC)CN1C(=O)[C@@H](NC(=O)OC(C)(C)C)C(C)(C)C)C(=O)NS(=O)(=O)C1CC1 ; cell line: Huh7 ; method: replicon ; strain: 1b ; value: 1–10 µM
COc1ccc(Cl)cc1Nc1ncnc2c1cnn2-c1ccccc1 ; cell line: HUH 9B ; method: replicon ; value: 1–10 µM
C=CC1CC1(NC(=O)[C@@H]1C[C@@H](OC(=O)Nc2ccccc2-n2cccc2)CN1C(=O)[C@@H](NC(=O)OC(C)(C)C)C(C)(C)C)C(=O)NS(=O)(=O)C1CC1 ; cell line: Huh7 ; method: replicon ; strain: 1b ; value: 0.1–1 µM
CN(C)c1ccc(Nc2s[nH]c(=O)c2C#N)c2ccccc12 ; cell line: Huh7 ; method: replicon ; value: >50 µM
C=CC1CC1(NC(=O)[C@@H]1C[C@@H](OC(=O)Nc2cc(C(F)(F)F)ccc2-n2cccc2)CN1C(=O)[C@@H](NC(=O)OC(C)(C)C)C(C)(C)C)C(=O)NS(=O)(=O)C1CC1 ; cell line: Huh7 ; method: replicon ; strain: 1b ; value: 0.1–1 µM
C#Cc1cn([C@@H]2O[C@H](CO)[C@@H](O)[C@H]2F)c2ncnc(N)c12 ; cell line: HCV replicon ; method: replicon ; strain: 1a ; value: 0.26 µM
C=CC1C[C@@]1(NC(=O)[C@@H]1C[C@@H](Oc2cc(-c3ccccc3)nc3cc(OC)ccc23)CN1C(=O)[C@@H](NC(=O)Oc1ccc(C(F)(F)F)cc1)C(C)(C)C)C(=O)NS(=O)(=O)C1(Cc2ccccc2)CC1 ; cell line: Huh7 ; method: replicon ; strain: 1b ; value: 0.5–5 µM
S=C(Nc1cccc(OCCCCCOc2ccc(-c3ccccc3)cc2)c1)N1CCCCC1 ; cell line: Ava5-EG(delta4AB)SEAP ; method: reporter gene / fluorescence ; value: 0.001–1 µM
CC1CCC(C(=O)N(c2cc(-c3ccc(NC(=O)c4c(F)cccc4F)cc3)sc2C(=O)O)C(C)C)CC1 ; method: replicon ; strain: 1b ; value: <0.5 µM
CC(C)N(C(=O)c1ccc(Cl)cc1F)c1cc(-c2ccccc2)sc1C(=O)O ; method: replicon / ELISA ; strain: 1b ; value: 1–5 µM
CCCCCOc1ccc(N(C(=O)NCC)c2nc(-c3cccnc3)cs2)cc1C(F)(F)F ; value: <1 µM
C=CC1CC1(NC(=O)[C@@H]1C[C@@H](OC(=O)n2c3ccccc3c3ccccc32)CN1C(=O)[C@@H](NC(=O)OC(C)(C)C)C(C)(C)C)C(=O)NS(=O)(=O)C1CC1 ; cell line: Huh7 ; method: replicon ; strain: 1b ; value: <0.1 µM
C=C[C@H]1C[C@@]1(NC(=O)[C@@H]1C[C@@H](Oc2cc(-c3ccccc3)nc3cc(OC)ccc23)CN1C(=O)[C@@H](NC(=O)OC(C)(C)C)C(C)(C)C)C(=O)NS(=O)(=O)C1(Cc2ccc(OC)cc2)CC1 ; cell line: Huh7 ; method: replicon ; strain: 1b ; value: 0.05–0.5 µM
Nc1ncnc2c1c(I)cn2[C@@H]1O[C@H](CO)[C@@H](O)C1(F)F ; cell line: HCV replicon ; method: replicon ; strain: 1a ; value: 1.1 µM
N#Cc1c(Nc2cccc(Cl)c2Cl)s[nH]c1=O ; cell line: Huh7 ; method: replicon ; value: >50 µM
Cc1ccc(-n2ncc3c(Nc4ccc5[nH]ncc5c4)ncnc32)c(C)c1 ; cell line: HUH 9B ; method: replicon ; value: 1–10 µM
CNC(=O)c1c(-c2ccc(F)cc2)oc2cc(-c3ncc[nH]3)c(OC(C)C)cc12 ; cell line: Huh7 ; method: replicon ; value: <1 µM
O=C(Nc1ccc(OCc2ccccn2)cc1)Nc1ncnc2c1cnn2-c1ccccc1Cl ; cell line: HUH 9B ; method: replicon ; value: <1 µM
COc1cc2c(cc1NC(N)=S)oc1ccccc12 ; cell line: Ava5-EG(delta4AB)SEAP ; method: reporter gene / fluorescence ; value: 0.001–1 µM
C=CC1CC1(NC(=O)[C@@H]1C[C@@H](OC(=O)N(C)c2ccccc2)CN1C(=O)[C@@H](NC(=O)OC(C)(C)C)C(C)(C)C)C(=O)NS(=O)(=O)C1CC1 ; cell line: Huh7 ; method: replicon ; strain: 1b ; value: 1–10 µM
CCN(C(=O)C1CCC(C)CC1)c1cc(-c2ccc(NC(=O)c3cscn3)cc2)sc1C(=O)O ; method: replicon ; strain: 1b ; value: <0.5 µM
CNC(=O)c1c(-c2ccc(F)cc2)oc2cc(S(=O)(=O)NC3CC3)c(OC(C)C)cc12 ; cell line: Huh7 ; method: replicon ; value: <10 µM
Nc1ncnc2c1c(-c1cccs1)cn2[C@H]1O[C@H](CO)[C@@H](O)C1(F)F ; cell line: HCV replicon ; method: replicon ; strain: 1a ; value: 1.52 µM
Cc1ccccc1-n1ncc2c(NCCc3ccc(S(N)(=O)=O)cc3)ncnc21 ; cell line: HUH 9B ; method: replicon ; value: 1–10 µM
CNC(=O)c1c(-c2ccc(F)cc2)oc2cc(C3(C)CNC(=O)O3)c(OC(C)C)cc12 ; cell line: Huh7 ; method: replicon ; value: <1 µM
C=CC1CC1(NC(=O)[C@@H]1C[C@@H](OC(=O)Nc2c(F)cccc2F)CN1C(=O)[C@@H](NC(=O)OC(C)(C)C)C(C)(C)C)C(=O)NS(=O)(=O)C1CC1 ; cell line: Huh7 ; method: replicon ; strain: 1b ; value: >10 µM
FC(F)(F)c1ccccc1-n1ncc2c(NCCc3c[nH]c4ccccc34)ncnc21 ; cell line: HUH 9B ; method: replicon ; value: 1–10 µM
C=C[C@H]1C[C@@]1(NC(=O)[C@@H]1C[C@@H](Oc2cc(-c3ccccc3)nc3cc(OC)ccc23)CN1C(=O)[C@@H](NC(=O)OC(C)(C)C)C(C)(C)C)C(=O)NS(=O)(=O)C1(C=C(C)C)CC1 ; cell line: Huh7 ; method: replicon ; strain: 1b ; value: 0.05–0.5 µM
C=CC1CC1(NC(=O)[C@@H]1C[C@@H](OC(=O)N(c2ccccc2)c2ccccc2)CN1C(=O)[C@@H](NC(=O)OC(C)(C)C)C(C)(C)C)C(=O)NS(=O)(=O)C1CC1 ; cell line: Huh7 ; method: replicon ; strain: 1b ; value: 0.1–1 µM
C=C[C@H]1C[C@@]1(NC(=O)[C@@H]1C[C@@H](Oc2cc(-c3ccccc3)nc3cc(OC)ccc23)CN1C(=O)[C@@H](NC(=O)OC(C)(C)C)C(C)(C)C)C(=O)NS(=O)(=O)C1(CC(C)C)CC1 ; cell line: Huh7 ; method: replicon ; strain: 1b ; value: 0.05–0.5 µM
NC(=O)COc1ccc2c(c1)S(=O)(=O)N=C(c1c(O)c3cc(F)ccc3n(CCC3CC3)c1=O)N2 ; method: replicon ; strain: 1b 7601 ; value: 0.095 µM
CCCCCCCCOc1ccc(N(C(=O)C(=O)OCC)c2nc(-c3cccnc3)cs2)cc1 ; value: <1 µM
Cc1ccc(-n2ncc3c(NCCc4c[nH]c5ccccc45)ncnc32)c(C)c1 ; cell line: HUH 9B ; method: replicon ; value: <1 µM
C=C[C@H]1C[C@@]1(NC(=O)[C@@H]1C[C@@H](Oc2ccnc3cc(Cl)ccc23)CN1C(=O)[C@@H](NC(=O)OC1CCCC1)C(C)(C)C)C(=O)NS(=O)(=O)C1(CC#CCC)CC1 ; cell line: Huh7 ; method: replicon ; strain: 1b ; value: <0.05 µM
CCN(c1cc2oc(-c3ccc(F)cc3)c(C(=O)NC)c2cc1OC)S(C)(=O)=O ; cell line: Huh7 ; method: replicon ; value: <1 µM
Cc1cc(Br)ccc1C(=O)N(c1cc(-c2ccc(-c3cc4ncccn4n3)cc2)sc1C(=O)O)C(C)C ; method: replicon / ELISA ; strain: 1a ; value: 0.1–0.5 µM
C=CC1CC1(NC(=O)[C@@H]1C[C@@H](OC(=O)Nc2ccc(F)c(F)c2F)CN1C(=O)[C@@H](NC(=O)OC(C)(C)C)C(C)(C)C)C(=O)NS(=O)(=O)C1CC1 ; cell line: Huh7 ; method: replicon ; strain: 1b ; value: 1–10 µM
C=C[C@H]1C[C@@]1(NC(=O)[C@@H]1C[C@@H](Oc2cc(-c3ccccc3)nc3cc(OC)ccc23)CN1C(=O)[C@@H](NC(=O)OC(C)(C)C)C(C)(C)C)C(=O)NS(=O)(=O)C1(CC2CCC2)CC1 ; cell line: Huh7 ; method: replicon ; strain: 1b ; value: <0.05 µM
NC(=S)Nc1cccc(OCCCOc2ccc(-c3ccccc3)cc2)c1 ; cell line: Ava5-EG(delta4AB)SEAP ; method: reporter gene / fluorescence ; value: 0.001–1 µM